The target of this assay is human polytropic/xenotropic receptor encoded by the human RMC1 locus (human) (UniProt Q9UBH6). The experiment in a line: cell-based or functional assay.

Chains of the proteins cited; added tags and fusions are not shown. Lines headed by an entry give the natural chain unless they say otherwise; changes in a name come on top.
UniProt Q9UBH6: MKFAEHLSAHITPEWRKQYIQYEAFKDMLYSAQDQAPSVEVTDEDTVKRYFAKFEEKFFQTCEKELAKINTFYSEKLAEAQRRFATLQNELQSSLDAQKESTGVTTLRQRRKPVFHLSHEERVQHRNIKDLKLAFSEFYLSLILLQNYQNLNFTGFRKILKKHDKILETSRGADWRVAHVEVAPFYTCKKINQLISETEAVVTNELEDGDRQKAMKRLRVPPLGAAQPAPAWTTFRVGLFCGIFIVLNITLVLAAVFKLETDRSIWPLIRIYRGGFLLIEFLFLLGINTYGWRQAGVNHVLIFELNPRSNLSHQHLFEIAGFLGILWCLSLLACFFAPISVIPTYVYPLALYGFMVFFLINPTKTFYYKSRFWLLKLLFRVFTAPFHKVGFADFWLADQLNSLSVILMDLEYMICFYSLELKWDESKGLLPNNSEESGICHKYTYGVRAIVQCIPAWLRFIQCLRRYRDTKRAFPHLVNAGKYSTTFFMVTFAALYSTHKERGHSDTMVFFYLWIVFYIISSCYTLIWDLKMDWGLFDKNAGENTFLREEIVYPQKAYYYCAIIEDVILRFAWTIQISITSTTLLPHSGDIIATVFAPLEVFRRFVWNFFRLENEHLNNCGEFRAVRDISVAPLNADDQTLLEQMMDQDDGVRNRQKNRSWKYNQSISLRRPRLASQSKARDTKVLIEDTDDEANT

“SL3-2 envelope polypeptide (wild type envelope protein of Murine Leukaemia Virus SL3-2) (from UniProt P03388 33-640)” gave a titer of mini-virus on HeLa cells of 0 cfu/mL.

These data come from patent publication US20060084791A1.
